Results taken from the supplement of paper PMC9931576.
Human monoclonal antibodies against the spike receptor-binding domain (heavy:light variable regions). IC50 against pseudoviruses bearing the spike of naturally observed variants; lower = stronger; >10 µg/ml means not reached at the top dose. No active / inactive call. The stated detection limit is 0.0005 µg/ml; values near or below 0.001 µg/ml lie at the floor of the assay.

Columns and labels:
Assay in all cases: pseudovirus neutralization IC50; higher = weaker neutralization
[1] = biological target: SARS-CoV-2 Omicron BA.1 spike pseudovirus
Experimental: (§1)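 Single-round VSV luciferase pseudovirus mixed with antibody dilutions for 1 h and put on Huh-7 cells for about a day; IC50 from the dose curve.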

[2] = biological target: SARS-CoV-2 Omicron BA.2 spike pseudovirus
Experimental: as §1

[3] = biological target: SARS-CoV-2 Omicron BA.2.75 spike pseudovirus
Experimental: as §1

[4] = biological target: SARS-CoV-2 Omicron BA.5 spike pseudovirus
Experimental: as §1

[5] = biological target: SARS-CoV-2 Omicron BQ.1.1 spike pseudovirus
Experimental: as §1

[6] = biological target: SARS-CoV-2 Omicron XBB spike pseudovirus
Experimental: as §1

[7] = biological target: SARS-CoV-2 early D614G spike pseudovirus
Experimental: as §1

Binder | pseudovirus neutralization IC50 [1] [µg/mL] | pseudovirus neutralization IC50 [2] [µg/mL] | pseudovirus neutralization IC50 [3] [µg/mL] | pseudovirus neutralization IC50 [4] [µg/mL] | pseudovirus neutralization IC50 [5] [µg/mL] | pseudovirus neutralization IC50 [6] [µg/mL] | pseudovirus neutralization IC50 [7] [µg/mL]
BD57-0244 (protein) chain 1: QVTLKESGPVLVKPSETLTLTCTVSGLSVSNDRMGVSWIRQPPGKALEWLAHIFSNDEKSYSTSLKSRLTISTDTSKRQVVLTMTSMDPVDTATYYCARMPPGVVHNWFDPWGQGILVTVSS chain 2: SYVLTQPPSVSVAPGKTARITCGGNNIGSKSVHWYQQKTGQAPVLVIYYDSDRPSGIPERFSGSNSGNTATLIISRVEAGDEADYYCQVWDSSSDQGVFGGGTKLTVL | 0.333 | 0.27 | 0.154 | > 10 | > 10 | > 10 | 0.145
BD57-0248 (protein) chain 1: EVQLVESGGGLVQPGGSLRLSCAASGFPFSTYDMHWVRQGTGKSLEWVSAIGTAGDTYYSDSVKGRFTISRENAKSSLYLRMNSLRVGDTAVYYCARVSHHYDGRGVPNYYYMDVWGIGTTVTVSS chain 2: DIQMTQSPSSLSASVGDRVTITCRASQNINTYLNWYQQKPGKGPKLLIYGASNLQSGVPSRFSGSGSGTDFTLTISSLQPEDFASYHCQQSYSNPQATFGQGTKLEIK | > 10 | > 10 | > 10 | > 10 | > 10 | > 10 | > 10
BD57-0254 (protein) chain 1: DVQLVESGGGLVQPGGSLRLSCAASGFTVTSNYMSWVRQAPGKGLEWVSVVYPGGSTFYADSVKGRFTISRDNSKNTLYLQMNGLRGDDTAVYYCSRDFVRGIRGINHWGQGTLVTVSS chain 2: DIQMTQSPSSLSASIGDRVTITCQASQDISNYLNWYQQKPGKAPKLLIYDASNLETGVPSRFSGSGSGTDFTFTIISLQPEDIATYYCHQYDNLPYTFGGGTKVEIK | 0.00764 | 0.00641 | 0.346 | 0.00588 | 2.11 | 2.24 | 0.00575
BD57-0262 (protein) chain 1: QVHLVQSGAEVKKTGSSVKVSCKASGGTFSSYVISWVRQAPGQGLEWMGGIIPVFGVPNYAQKFKGRVTITAAESTGTAYMELSSLRSEDTAVYFCATGGVSGTVVYNMAVWGEGTAVTVSS chain 2: QSALTQPPSASGSPGQSVTISCTGTSSDVGGFNYVSWYQQHPGKAPKLIIYEVSQRPSGVPDRFSGSKSGNAASLTVSGLQAEDEADYYCSSYGGNNNLIFGGGTKLTVL | > 10 | > 10 | 0.00381 | 0.0413 | 0.163 | > 10 | 0.0016
BD57-0264 (protein) chain 1: QDHLVQSGAEVRKAGTSVKVSCRASGGSFSSYSFNWVRQAPGQGLEWMGRIIPILDIANYAQKFQGRVTITADTSTSTVYMGLSSLTFEDTAVYFCARGSSDYGDNLLSGLDWFDPWGQGTLVTVSS chain 2: QSVLTQPPSVSGAPGQRVTISCSGSSSNIGAGYDVHWYQQLPGTAPKLLIFGNTNRPSGVPDRFSGSKSGTSASLAIIGLQAEDEAGYYCQSYDSSLSHVIFGGGTKLTVL | 0.0716 | 0.0963 | 0.446 | 0.0629 | 0.537 | 0.62 | 0.00303
BD57-0270 (protein) chain 1: QLQLQESGPGVVKPSQTLSLTCTVSGGSISSGGFYWNWIRQHPVKGLEWIGSIFYSGSTYYNPSLKSRLTMAVDTSKNQLSLKLRSVTAADTAVYYCARDFGGNANYFAFWGQGTRVTVSS chain 2: DIQMTQSPSSLSASVGDRVTITCQASQDITNYLSWYQQKPGKAPKLLIYDASNLETGVPSRFSGSGSGTDFTLTISSLQPEDFATYYCQQYYNNLPLTFGGGTKVEIK | 6.18 | 4.08 | 3.24 | 5.41 | 7.12 | 5 | 5.34
BD57-0272 (protein) chain 1: QVQVVESGGGVVQPGRSLRLSCVVSGFTFSTYGMHWVRQAPGKGPEWVAVIWYDGTNEHYTDSVKGRFTISRDNSKNTLYLEMNSLRAEDTAVYYCAREAFYYGSNGENYFQYYMDVWGKGTTVTVSS chain 2: QSALTQPRSVSGSPGQSVTISCTGTSSDVGGYNYVSWYQHHPGKAPKVMIYDVNKRPSGVPDRFSGSKSDNTASLTISGLQAEDEADYYCCSYAGTYTYVFGTGTTVSVL | 0.275 | 0.969 | 0.631 | 0.637 | > 10 | 4.17 | 0.614
BD57-0275 (protein) chain 1: QVQLVQSGAEMKKPGSSVKVSCKASGGTFSSYTFTWVRQAPGQGLEWMGRIIPILGVADSAQKFQGRVTISADKSTSTVYMELSSLRSEDTALYYCARERGYSDSGSAYYFDSWGQGTLVTVSS chain 2: QSVLTQPPSVSGAPGQRVTISCTGSNSNLGAGYDVHWYQQLPGAAPKLLIYANTNRPSGVPDRFSGSKSGTSASLAITGLQAEDEADYYCQSYDSGLSGSLFGGGTKLTVL | 0.0217 | 0.0479 | 0.0311 | 0.618 | 2.06 | 1.13 | 0.219
BD57-0279 (protein) chain 1: QVQLQESGPGLVKPSQTLSLTCAVSGGSISSGGYYWTWIRQHPGKGLEWIGYISYSGSTYYNPSLKSRLTISVDTSKNQFSLKLSSVTAADTAVYYCARERAYDSSGPKGYFDYWGQGTLVAVSS chain 2: SYVLTQPPSVSVAPGQTARITCGGDTIGSKNVHWYQHRPGQAPVLVVYDDSDRPSGIPERFSGSNSGNTATLTISRVEAGDEADYYCQVWDSTSDHPYVFGTGTKVTVL | > 10 | > 10 | > 10 | > 10 | > 10 | > 10 | 4.42
BD57-0283 (protein) chain 1: EVQLVQSGAEVKKAGESLKISCKTSGYSFTRYWIGWVRQMPGKGLEWMGIIYPGDSDTTYSPSFQGQVTISADKSINTAYLQWSSLKASDTAMYYCATMMRGPSSGDPFEYWGQGTLVTVSS chain 2: DIQMTQSPSSVSASVGDRVTITCRASQGISSWLAWYQQKPGKAPKVLIYAASSLQSGVPSRFSGSGSGTDFTLTISSLQPEDFATYYCQQGSSLPLTFGGGTKVEIK | 0.848 | 1.45 | 0.932 | 1.12 | 1.66 | 2.6 | 2.34
BD57-0284 (protein) chain 1: QVQLVESGGGVVRPGRSLRLSCAASGFTFSNYDMHWVRQAPGKGLEWLALISSDGSSKFYADSVKGRFTVSRDNSKNTLYLQMSTLRAEDTAVYYCARDPGLSTMVTYFQHWGQGTLVTVSS chain 2: DIQMTQSPSLLSASVGDRVTITCRASQSISSYLNWYQQKPGKAPKLLIYGASSLESGVPSRFSGSGSGTDFTLTISSLQPEDFATYYCQQSYTTLALTFGGGTKVEIK | 3.91 | 4.28 | 5.51 | 2.08 | 2.88 | 3.03 | > 10
BD57-0285 (protein) chain 1: QVHLVESGGGVVQPGRSLRLSCAASGFTFSSYALHWVRQAPGKGLEWLAVISNDGSKNYYVDSVKGRLTISRDNSKNTLYLQMNSLRPEDTAVYYCARGKVAGTIEYYYYGLDVWGQGTTVTVSS chain 2: AIQLTQSPSSLSASVGDRVSITCRASQGISSALAWYQQKPGKAPKLLIYDASSLESGVPSRFSGSGYGTDFTLTISSLQAEDFATYYCQQFNVYPWTFGQGTKVEIK | 0.661 | 1.11 | 0.00927 | 1.19 | 3.09 | > 10 | 0.00315
